Results of unrelated studies side by side (data: NIAID ChemDB).

All rows: tests in culture; species: Cryptococcus neoformans

An empty or dashed field is not shown.

compound,strain,read by,read-out,result
COC(=O)Nc1nc2ccc(Sc3ccccc3)cc2[nH]1,ATCC 14116,-,EC50,<0.016 µg/mL
CC(C)(C)C1CCC(CN2C3=NC[C@H](C4CCCCC4)N3C[C@@H]2CC2CCCCC2)CC1,ATCC 32045,-,EC50,4.1 µg/mL
COc1cccc(C(CC(=O)c2ccccc2)C(C#N)C#N)c1OC,ATCC 32264,-,MIC,>50 µg/mL
COC(=O)Nc1nc2ccc(C(=O)c3cccs3)cc2[nH]1,IU8698,-,EC50,0.09 µg/mL
CCCCCCCCCN[C@@H]1CCc2cc(OC)c(OC)cc2C1,-,-,MIC80,4 µg/mL
c1ccc(C[C@H]2CN=C3N(CCC45CC6CC(CC(C6)C4)C5)[C@@H](Cc4ccccc4)CN32)cc1,ATCC 32045,-,MIC,16–32 µg/mL
CCCCCCCCCCCCN1CCc2cc(OC)c(OC)cc2C1,-,-,MIC80,16 µg/mL
COc1cc(O)c2c(=O)oc(CO)c(CO)c2c1C,ATCC 90113,broth dilution / absorbance,MIC,>128 µg/mL
CCCCCCCCCCN[C@H]1CCc2cc(OC)c(OC)cc2C1,-,-,MIC80,1 µg/mL
C[C@H]1[C@H](O)[C@@H](C)/C=C/C=C/C=C/C=C/C=C/C=C/C=C/[C@H](O[C@@H]2O[C@H](C)[C@@H](O)[C@H](N)[C@@H]2O)C[C@@H]2O[C@](O)(C[C@@H](O)C[C@@H](O)CC[C@H](O)[C@@H](O)C[C@@H](O)CC(=O)O[C@H]1C)C[C@H](O)[C@H]2C(=O)O,-,-,MIC,0.016–16 µg/mL
Clc1ccc(COC(Cn2ccnc2)c2ccc(Cl)cc2Cl)c(Cl)c1,-,-,MIC,1 µg/mL
Clc1ccc(C(Cn2ccnc2)OCc2csc3c(Cl)cccc23)c(Cl)c1,3 strains,-,MIC,0.12 µg/mL
CC(C)(C)C1CCC(CN2C3=NC[C@H](CC4CCCCC4)N3C[C@H]2C2CCCCC2)CC1,ATCC 32045,-,EC50,3.5 µg/mL
C[C@@H]1[C@H](O)[C@@H](C)/C=C/C=C/CC/C=C/C=C/C=C/C=C/C(O[C@H]2O[C@H](C)[C@@H](O)[C@H](N)[C@@H]2O)CC2O[C@](O)(CC(O)C(O)CCC(O)CC(O)CC(O)CC(=O)O[C@H]1C)CC(O)C2C(=O)O,IP 90526,broth dilution,MIC,6.25 µg/mL
CCCCCCCCCN1CCc2cc(OC)c(OC)cc2C1,-,-,MIC80,16 µg/mL
CCCCCCCCCCCOCC(=O)O,-,-,MIC,300 µM
C1CCC(C[C@@H]2CN3C(=NC[C@@H]3CC3CCCCC3)N2CCC23CC4CC(CC(C4)C2)C3)CC1,ATCC 32045,-,MIC,4–8 µg/mL
CCCCCCCCCCOCCC(=O)O,-,-,MIC,300 µM
CCCOc1ccc2nc(NC(=O)OC)[nH]c2c1,ATCC 14116,-,EC50,<2.1 µg/mL
C1CCC(C[C@@H]2CN3C(=NC[C@@H]3C3CCCCC3)N2CCC23CC4CC(CC(C4)C2)C3)CC1,ATCC 32045,-,MIC,3–4 µg/mL
COc1cc(/C=C/C(=O)c2cc(OC)c(OC)c(OC)c2)cc(OC)c1OC,ATCC 32264,-,MIC,>50 µg/mL
CCCCCCCCCN1CCc2cc(O)c(O)cc2C1,-,-,MIC80,16 µg/mL
Cc1c(N)nc([C@H](CC(N)=O)NC[C@H](N)C(N)=O)nc1C(=O)N[C@H](C(=O)N[C@H](C)[C@@H](O)[C@H](C)C(=O)N[C@H](C(=O)NCCc1nc(-c2nc(C(=O)NCCC[S+](C)C)cs2)cs1)[C@@H](C)O)C(O[C@@H]1O[C@@H](CO)[C@@H](O)[C@H](O)[C@@H]1O[C@H]1O[C@H](CO)[C@@H](O)[C@H](OC(N)=O)[C@@H]1O)c1cnc[nH]1,Isolate 94-181,-,MIC,1.57 µg/mL
C[C@H]1CCC/C=C/[C@@H]2C[C@H](O)C[C@H]2[C@@H](O)/C=C/C(=O)O1,ATCC 90113,broth dilution / absorbance,MIC,>128 µg/mL
CCCCCCCCCCCCN1CCc2cc(O)c(O)cc2C1,-,-,MIC80,16 µg/mL
CN(C/C=C/C#CC(C)(C)C)Cc1cccc2ccccc12,-,-,MIC90,1 µg/mL
COc1ccc(C(=O)/C=C/c2cc3cc(OC)c(OC)cc3nc2Cl)cc1OC,ATCC 32264,-,MIC,>50 µg/mL
CC(C)C[C@@H]1CN2C(=NC[C@H]2C2CCCCC2)N1CCC12CC3CC(CC(C3)C1)C2,ATCC 32045,-,EC50,9.1 µg/mL
c1ccc2c(c1)-c1nccc3ccnc-2c13,ATCC52627,-,EC50,4.8 µg/mL
COC(=O)C(C(=O)OC)C(CC(=O)c1ccccc1)c1ccccc1,ATCC 32264,-,MIC,>50 µg/mL
C1CCC(C[C@@H]2CN=C3N2C[C@H](C2CCCCC2)N3CCC23CC4CC(CC(C4)C2)C3)CC1,ATCC 32045,-,MIC,4–8 µg/mL
COc1c(CC=C(C)C)c(O)cc2occ(-c3ccc4c(c3)OCO4)c(=O)c12,IP 90526,broth dilution,MIC,>100 µg/mL
C=C1/C=C(\C)[C@H](CC)OC(=O)[C@H](C)C(=O)C(O)(CO)C/C(OC)=C/[C@@H](C)C1,IAM 4772,-,MFC,0.3 µg/mL
Cc1ccc(NC(=O)CN(C)CC(O)Cn2c(=O)c3ccccc3n(C)c2=O)cc1,-,agar diffusion,MIC,128 µg/mL
O=Cc1cc(O)ccc1O,CBS 132,broth dilution / turbidity,EC50,0.08 µM
COc1cccc(/C=C/C(=O)c2ccccc2)c1OC,ATCC 32264,-,MIC,>50 µg/mL
Nc1[nH]c(=O)ncc1F,-,-,MIC,0.03–64 µg/mL
C[C@H]1O[C@@H](Oc2ccc(-c3coc4cc(O[C@@H]5O[C@H](C)[C@H](O)[C@H](O)[C@@H]5O)ccc4c3=O)cc2)[C@@H](O)[C@@H](O)[C@H]1O,B42419,-,MIC,3 µg/mL
COc1ccc(C(=O)CC(c2ccc3ccccc3c2)C(C#N)C#N)cc1OC,ATCC 32264,-,MIC,>50 µg/mL
COCC1(C)OCC(CNCC(C)Cc2ccc(C(C)(C)C)cc2)O1,17-1-2,-,MIC,17.5 µM
NC(=O)OC[C@H](O)[C@@H](O)[C@H](N)C(=O)N[C@H](C(=O)O)[C@H]1O[C@@H](n2cc(C(=O)O)c(=O)[nH]c2=O)[C@H](O)[C@@H]1O,ATCC 36556,-,MIC,>100 µg/mL
CC(C/C=C/C=C/CC/C=C\C=C\CCC(C)(C)C)C(O)C(O)C(O)C(O)C(O)C1OC(=O)C(O)C1O,IAM 4514,-,MIC,3.1 µg/mL

3 of the rows above, restated:

compound | strain | read by | read-out | result
c1ccc(C[C@H]2CN=C3N(CCC45CC6CC(CC(C6)C4)C5)[C@@H](Cc4ccccc4)CN32)cc1 | ATCC 32045 | - | MIC | 16–32 µg/mL
CC(C/C=C/C=C/CC/C=C\C=C\CCC(C)(C)C)C(O)C(O)C(O)C(O)C(O)C1OC(=O)C(O)C1O | IAM 4514 | - | MIC | 3.1 µg/mL
CCCCCCCCCN1CCc2cc(OC)c(OC)cc2C1 | - | - | MIC80 | 16 µg/mL

a–b is a range or a potency band. ECn is the concentration giving n% inhibition of infection, replication or growth. Lines come from different laboratories, so protocols vary. MIC50, MIC90 and the like: level of inhibition, or share of isolates inhibited.